Anti-infective test results gathered from many reports (values: NIAID ChemDB through PubChem).

Common to all: tests in culture; species: HIV-1; read by: RT activity; measure: EC50

Blank or dashed fields: not listed here.

compound	cell line	strain or isolate	conditions	mutations	result
Cc1cc(C)cc(C(=O)c2cc(Cl)ccc2OCCN2CCC(=O)NC2=O)c1			pseudotyped	K103N	3.6 µM
Cc1cn([C@H]2C[C@H](N=[N+]=[N-])[C@@H](COP(=O)(OCCSC(=O)C(C)(C)C)OCCSC(=O)C(C)(C)C)O2)c(=O)[nH]c1=O	CEM + CEM-SS	LAI			0.0004 µM
COc1ccccc1CN[C@H]1C2CCN(CC2)[C@H]1C(c1ccccc1)c1ccccc1	Macrophage + Monocytes/macrophages	CSF-8 Primary R5 isolate			<0.1 µM
Nc1nc(=O)n([C@H]2C[C@H](O)[C@@H](CO)O2)cc1-c1ccsc1	H9	IIIB			>10 µg/mL
Nc1nc(=O)n([C@H]2CO[C@@H](CO)S2)cc1F	MT-4	HXB2D (RT-M184V)		RT-M184V	65 µM
Cc1ccnc2c1NC(=O)c1cccnc1N2C1CC1	PBMC	TEKI(SI)			0.1 µM
Cc1ccc(C(=O)OC[C@H]2O[C@H](n3cc(-c4sccc4C)c(=O)[nH]c3=O)C[C@@H]2OC(=O)c2ccc(C)cc2)cc1	H9	IIIB			<1 µg/mL
Nc1ncnc2c1ncn2CCOCP(=O)(OCCSSCCO)OCCSSCCO	CEM + CEM-SS	LAI			3.1 µM
Cc1cc(C)cc(C(=O)c2cc(Cl)ccc2OCCN2C(=O)NC(=O)C(C)C2C)c1			pseudotyped	K103N	1.6 µM
Cc1cn([C@H]2C=C[C@@H](COP(=O)(SCCOC(=O)C(C)(C)C)SCCOC(=O)C(C)(C)C)O2)c(=O)[nH]c1=O	CEM + CEM-SS	LAI			0.0059 µM
CCCc1cc(=O)oc2c3c(c4c(c12)OC(C)(C)C=C4)O[C@@H](C)[C@H](C)[C@@H]3O	PBMC	CLADE B			0.2 µM
CC(C)Nc1cccnc1N1CCN(C(=O)c2cc3cc(NS(C)(=O)=O)ccc3[nH]2)CC1	PBMC	Resistant (MDR) isolate		RT-M41L K103N T215Y	14.4 µM
CC(=O)SCCOP(=O)(OCCSC(C)=O)OC[C@@H]1CC[C@H](n2cnc3c(N)ncnc32)O1	MT-4	LAI			0.011 µM
Cc1cn([C@H]2C[C@H](N=[N+]=[N-])[C@@H](CO)O2)c(=O)n(N)c1=O	CEM-C113 + CEM/C113	BRU			0.01 µM
Cc1cn([C@H]2C[C@H](N=[N+]=[N-])[C@@H](COP(=O)(O)OC[C@@H]3O[C@H](n4ccc(N)nc4=O)CS3)O2)c(=O)[nH]c1=O	MT-4	IIIB			0.075 µM
Cc1ccc(C(=O)OC[C@H]2O[C@@H](n3cc(-c4sccc4C)c(=O)[nH]c3=O)C[C@@H]2OC(=O)c2ccc(C)cc2)cc1	H9	IIIB			<10 µg/mL
CCCCCCCCOC(=O)P(=O)(O)OC[C@H]1O[C@@H](n2cc(C)c(=O)[nH]c2=O)C[C@@H]1N=[N+]=[N-]	CEM + CEM-SS	LAI			0.03 µM
Nc1ccn([C@H]2CC[C@@H](CO)O2)c(=O)n1	MT-2	PDBC			0.2 µM
CC(=O)SCCOP(=O)(OCCSC(C)=O)OC[C@H]1O[C@@H](n2cc(C)c(=O)[nH]c2=O)C[C@@H]1N=[N+]=[N-]	CEM + CEM TK-	LAI			0.039 µM
Nc1ncnc2c1ncn2[C@H]1CC[C@@H](CO)O1	CEM + CEM TK-	LAI			1 µM
CCCc1cc(=O)oc2c3c(c4c(c12)OC(C)(C)C=C4)O[C@H](C)[C@@H](C)[C@@H]3O	PBMC	ROJO(SI)			0.07 µM
CC(C)(C)NC(=O)[C@@H]1C[C@@H]2CCCC[C@@H]2CN1C[C@@H](OC(=O)CCCCO[C@@H]1[C@@H](O)[C@@H](O)O[C@H](CO)[C@H]1O)[C@H](Cc1ccccc1)NC(=O)[C@H](CC(N)=O)NC(=O)c1ccc2ccccc2n1	CEM + CEM-SS	LAI			<0.011 µM
Cc1cn([C@H]2C[C@H](N=[N+]=[N-])[C@@H](CO)O2)c(=O)[nH]c1=O	CEM + CEM-SS	LAI			0.012 µM
CC(C)CN(C[C@@H](O)[C@H](Cc1ccccc1)NC(=O)[C@H](CC(N)=O)NC(=O)c1ccc2ccccc2n1)C(=O)NC(C)(C)C	PBL	LAI			0.15 µM
Nc1ccn([C@@H]2CO[C@H](CO)S2)c(=O)n1	MT-4	HxB2D(RT-D67G)		RT-D67G	8.8 µM
CC(C)(C)NC(=O)[C@@H]1CN(Cc2cccnc2)CCN1C[C@@H](O)C[C@@H](Cc1ccccc1)C(=O)N[C@H]1c2ccccc2C[C@H]1OC(=O)CCCCOc1ccc(C[C@H](N)C(=O)O)cc1	CEM + CEM-SS	LAI			0.009 µM
Cc1cn([C@H]2C[C@H](N=[N+]=[N-])[C@@H](CO)O2)c(=O)[nH]c1=O	PBL (activated) + PBL	IIIB			<0.033 µM
Cc1cn([C@H]2C=C[C@@H](COC(=O)CNC(=O)C(=O)/C=C(\O)c3cc(OCc4ccccc4)cc(OCc4ccccc4)c3)O2)c(=O)[nH]c1=O	MT-4	IIIB			1.8 µM
O=c1[nH]cnc2c1ncn2[C@H]1CC[C@@H](CO)O1	MT-4	Clinical isolate 263			3.6 µM
CO[C@H]1O[C@@H](n2ccc(=O)[nH]c2=O)C[C@@H]1N=[N+]=[N-]	MT-2	HX			27.6 µM
CC(C)c1nc(CN(C)C(=O)N[C@H](C(=O)N[C@@H](Cc2ccccc2)C[C@H](O)[C@H](Cc2ccccc2)NC(=O)OCc2cncs2)C(C)C)cs1	PBL	LAI			0.02 µM
Nc1ccn([C@@H]2C[Se][C@H](CO)O2)c(=O)n1	PBMC	BRU			0.11 µM
Nc1nc(=O)n([C@H]2C[C@H](O)[C@@H](CO)O2)cc1-c1ccoc1	H9	IIIB			>10 µg/mL
O=c1[nH]cnc2c1ncn2[C@H]1CC[C@@H](CO)O1	PBL (activated) + PBL	BZ X4			2.85 µM
CC(=O)OC[C@H]1O[C@@H](SCCOP(=O)(OCS[C@@H]2O[C@H](COC(C)=O)[C@@H](OC(C)=O)[C@H](OC(C)=O)[C@H]2OC(C)=O)OC[C@H]2O[C@@H](n3cc(C)c(=O)[nH]c3=O)C[C@@H]2N=[N+]=[N-])[C@H](OC(C)=O)[C@@H](OC(C)=O)[C@@H]1OC(C)=O	CEM + CEM-SS	LAI			0.03 µM
CC(C)(C)NC(=O)[C@@H]1CN(Cc2cccnc2)CCN1C[C@@H](O)C[C@@H](Cc1ccccc1)C(=O)N[C@H]1c2ccccc2C[C@H]1O	CEM + CEM-SS	LAI			≤0.01 µM
Cc1cn([C@H]2C[C@H](n3nncc3C)[C@@H](CO)O2)c(=O)[nH]c1=O	PBMC	LAV			>100 µM
Cc1c(OC(=O)CCCCO[C@H]2O[C@H](CO)[C@@H](O)[C@H](O)[C@@H]2O)cccc1C(=O)N[C@@H](CSc1ccccc1)[C@@H](CN1C[C@H]2CCCC[C@H]2C[C@H]1C(=O)NC(C)(C)C)OC(=O)CCCCO[C@H]1O[C@H](CO)[C@@H](O)[C@H](O)[C@@H]1O	CEM + CEM-SS	LAI			2.12 µM
Cc1ccnc2c1NC(=O)c1cccnc1N2C1CC1	CBMC	HXB2D			0.032 µM
O=C(CCC(=O)N1CCN(CCNC(=S)Nc2ccc(Br)cn2)CC1)NCC(=O)OC[C@@H]1C=C[C@H](n2ccc(=O)[nH]c2=O)O1	CEM + CEM-SS	LAI			6.9 µM
CC(=O)OC[C@H]1O[C@@H](SCCOP(=O)(OCCS[C@@H]2O[C@H](CO)[C@@H](O)[C@H](O)[C@H]2O)OC[C@H]2O[C@@H](n3cc(C)c(=O)[nH]c3=O)C[C@@H]2N=[N+]=[N-])[C@H](OC(C)=O)[C@@H](OC(C)=O)[C@@H]1OC(C)=O	CEM + CEM-SS	LAI			0.001 µM
Cc1cn([C@H]2C=C[C@@H](COC(=O)CNC(=O)C(=O)/C=C(\O)c3cccn3Cc3ccc(F)cc3)O2)c(=O)[nH]c1=O	PBMC	BaL			0.32 µM
Cc1cn([C@H]2C[C@H](F)[C@@H](CO)O2)c(=O)[nH]c1=O	MT-4	SCV 4005			0.012 µM
Nc1ccn([C@H]2CC[C@@H](CO)O2)c(=O)n1	PBL(PHA STIM.) + PBL	IIIB			0.23 ± 0.29 µM
Cc1cn([C@H]2C[C@H](N=[N+]=[N-])[C@@H](CO)O2)c(=O)[nH]c1=O	CEM + CEM-SS	LAI			0.0033 µM
Cc1cn([C@H]2C[C@H](N=[N+]=[N-])[C@@H](CO)O2)c(=O)nc1N	Macrophage	DV			0.006 µM
Cc1cn([C@H]2C[C@H](N=[N+]=[N-])[C@@H](COP(=O)(OCCS[C@@H]3O[C@H](CO)[C@@H](O)[C@H](O)[C@H]3O)OCCS[C@@H]3O[C@H](CO)[C@@H](O)[C@H](O)[C@H]3O)O2)c(=O)[nH]c1=O	CEM + CEM-SS	LAI			0.01 µM
CC(C)(C)C(=O)SCCOC(=O)P(=O)(OCCSC(=O)C(C)(C)C)OCCSC(=O)C(C)(C)C	CEM + CEM TK-	LAI			8.2 µM
Cc1c(OC(=O)CCCCO[C@H]2O[C@H](CO)[C@@H](O)[C@H](O)[C@@H]2O)cccc1C(=O)N[C@@H](CSc1ccccc1)[C@H](O)CN1C[C@H]2CCCC[C@H]2C[C@H]1C(=O)NC(C)(C)C	CEM + CEM-SS	LAI			0.339 µM
CO[C@H]1O[C@@H](n2ccc(=O)[nH]c2=O)C[C@@H]1N=[N+]=[N-]	PBMC (mitogen stimulated) + PBMC	LAV Laboratory strain			0.2 µM
Cc1cn([C@H]2C[C@H](N=[N+]=[N-])[C@@H](CO)O2)c(=O)[nH]c1=O	CEM + CEM TK-	LAI			>100 µM
Cc1cn([C@H]2C[C@H](N=[N+]=[N-])[C@@H](CO)O2)c(=O)[nH]c1=O	PBMC	LAV			0.002 µM
Cc1cn([C@H]2C[C@H](N=[N+]=[N-])[C@@H](COP(=O)(O)C(=O)OCCSC(=O)C(C)(C)C)O2)c(=O)[nH]c1=O	CEM + CEM TK-	LAI			53 µM
O=C(CCC(=O)N1CCN(CCNC(=S)Nc2ccc(Br)cn2)CC1)NCC(=O)OCC#Cc1cn([C@H]2CC[C@@H](CO)O2)c(=O)[nH]c1=O	MT-4	IIIB			>10 µM
Cc1cn([C@H]2C[C@H](N=[N+]=[N-])[C@@H](CO)O2)c(=O)[nH]c1=O	PBMC	CLADE D			0.1 µM
Cc1nnn([C@H]2C[C@H](n3ccc(=O)[nH]c3=O)O[C@@H]2CO)c1C	PBMC	LAV			>100 µM
CC(C)(C)NC(=O)[C@@H]1C[C@@H]2CCCC[C@@H]2CN1C[C@@H](O)[C@H](Cc1ccccc1)NC(=O)[C@H](CC(N)=O)NC(=O)c1ccc2ccccc2n1	CEM + CEM-SS	RF			0.008 µM
Cc1ccnc2c1NC(=O)c1cccnc1N2C1CC1	PBMC	Resistant (MDR) isolate		RT-M41L K103N T215Y	14.8 µM
CC(C)(C)NC(=O)[C@@H]1CN(Cc2cccnc2)CCN1C[C@@H](O)C[C@@H](Cc1ccccc1)C(=O)N[C@H]1c2ccccc2C[C@H]1OC(=O)CCCCO[C@@H]1[C@@H](O)[C@@H](O)O[C@H](CO)[C@H]1O	CEM + CEM-SS	LAI			0.048 µM
Nc1nc(=O)n([C@@H]2CO[C@H](CO)S2)cc1F	CBMC	1075 (AZT-resistant)			2 µM
CC(=O)SCCOP(=O)(OCCSC(C)=O)OC[C@@H]1CC[C@H](n2cnc3c(=O)[nH]cnc32)O1	CEM + CEM-SS	LAI			1.2 µM
O=C(CNC(=O)C(=O)/C=C(\O)c1cccn1Cc1ccc(F)cc1)OC[C@@H]1CC[C@H](n2ccc(=O)[nH]c2=O)O1	MT-4	IIIB			>10 µM
Cc1cn([C@H]2C=C[C@@H](CO)O2)c(=O)[nH]c1=O	PBL (resting) + PBL	BZ X4			>4 µM
Nc1ncnc2c1ncn2[C@H]1CC[C@@H](CO)O1	CEM + CEM-SS	LAI			0.43 µM
Cc1cn(C2CC(N=[N+]=[N-])C(COP(=O)(OC[C@H]3O[C@@H](n4cc(C)c(=O)[nH]c4=O)C[C@@H]3N=[N+]=[N-])C(=O)OCCSC(=O)C(C)(C)C)O2)c(=O)[nH]c1=O	CEM + CEM TK-	LAI			>10 µM

The last 10 rows once more:

compound,cell line,strain or isolate,conditions,mutations,result
Cc1nnn([C@H]2C[C@H](n3ccc(=O)[nH]c3=O)O[C@@H]2CO)c1C,PBMC,LAV,,,>100 µM
CC(C)(C)NC(=O)[C@@H]1C[C@@H]2CCCC[C@@H]2CN1C[C@@H](O)[C@H](Cc1ccccc1)NC(=O)[C@H](CC(N)=O)NC(=O)c1ccc2ccccc2n1,CEM + CEM-SS,RF,,,0.008 µM
Cc1ccnc2c1NC(=O)c1cccnc1N2C1CC1,PBMC,Resistant (MDR) isolate,,RT-M41L K103N T215Y,14.8 µM
CC(C)(C)NC(=O)[C@@H]1CN(Cc2cccnc2)CCN1C[C@@H](O)C[C@@H](Cc1ccccc1)C(=O)N[C@H]1c2ccccc2C[C@H]1OC(=O)CCCCO[C@@H]1[C@@H](O)[C@@H](O)O[C@H](CO)[C@H]1O,CEM + CEM-SS,LAI,,,0.048 µM
Nc1nc(=O)n([C@@H]2CO[C@H](CO)S2)cc1F,CBMC,1075 (AZT-resistant),,,2 µM
CC(=O)SCCOP(=O)(OCCSC(C)=O)OC[C@@H]1CC[C@H](n2cnc3c(=O)[nH]cnc32)O1,CEM + CEM-SS,LAI,,,1.2 µM
O=C(CNC(=O)C(=O)/C=C(\O)c1cccn1Cc1ccc(F)cc1)OC[C@@H]1CC[C@H](n2ccc(=O)[nH]c2=O)O1,MT-4,IIIB,,,>10 µM
Cc1cn([C@H]2C=C[C@@H](CO)O2)c(=O)[nH]c1=O,PBL (resting) + PBL,BZ X4,,,>4 µM
Nc1ncnc2c1ncn2[C@H]1CC[C@@H](CO)O1,CEM + CEM-SS,LAI,,,0.43 µM
Cc1cn(C2CC(N=[N+]=[N-])C(COP(=O)(OC[C@H]3O[C@@H](n4cc(C)c(=O)[nH]c4=O)C[C@@H]3N=[N+]=[N-])C(=O)OCCSC(=O)C(C)(C)C)O2)c(=O)[nH]c1=O,CEM + CEM TK-,LAI,,,>10 µM

ECn is the concentration giving n% inhibition of infection, replication or growth. Lines come from different laboratories, so protocols vary.